Results deposited as PubChem BioAssay AID1259414 (Drosophila RNAi Screening Center, 2018)
The deposit covers about 24,000 reagents; below is an unselected part of those with a known target gene and a result. In the full data, about 1,210 (5%) are marked active. 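Inactive calls also include excluded dsRNAs with several or no targets, genes unexpressed in JW18, and well A1, regardless of score.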 The numbers tell different reagents against one gene apart. Names joined by + are all predicted targets of the reagent. Reagent sequences are not shown.

Purpose: 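Host factors increasing or decreasing Wolbachia levels in cultured fly cells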 (primary screen)
Cells: Drosophila JW18 cells infected with Wolbachia
Reagent: long dsRNA against Drosophila genes, 0.25 µg dsRNA per well of a 384-well plate
Timing: 5 days
Treatment: cells persistently infected with Wolbachia before knock-down; no added drug
Measurement: 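Automated imaging of bacterial rRNA staining divided by host cell count, reported as plate-normalised robust z-score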
Direction: Wolbachia per cell robust z: higher = more Wolbachia per host cell than the plate typical
Active means: 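Hit when robust z is 1.5 or more, or -1.5 or less, in at least two of three replicates; excludes dsRNAs with several or no targets, genes not expressed in JW18 and well A1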

How did the screen score Ggamma30A + borr?
Wolbachia per cell robust z, rep 1: 3.59; Wolbachia per cell robust z, rep 2: -2.69; Wolbachia per cell robust z, rep 3: -0.15; activity call: inactive

What is on record for Cdk8 (Cyclin-dependent kinase 8) #1?
Wolbachia per cell robust z, rep 1: 0.391; Wolbachia per cell robust z, rep 2: 1.19; Wolbachia per cell robust z, rep 3: 1.65; activity call: inactive

With Cdk8 (Cyclin-dependent kinase 8) #2, what was measured?
Wolbachia per cell robust z, rep 1: -0.278; Wolbachia per cell robust z, rep 2: -0.181; Wolbachia per cell robust z, rep 3: 0.68; activity call: inactive

What is on record for Cdk8 (Cyclin-dependent kinase 8) #3?
Wolbachia per cell robust z, rep 1: -1.25; Wolbachia per cell robust z, rep 2: 0.808; Wolbachia per cell robust z, rep 3: 1.14; activity call: inactive

For CG12985 #1, what does the deposit list?
Wolbachia per cell robust z, rep 1: -2.35; Wolbachia per cell robust z, rep 2: -1.52; Wolbachia per cell robust z, rep 3: -0.22; activity call: active

With CG12985 #2, what does the deposit list?
Wolbachia per cell robust z, rep 1: 0.677; Wolbachia per cell robust z, rep 2: 1.09; Wolbachia per cell robust z, rep 3: 0.489; activity call: inactive

For Sec71 (Secretory 71), what does the deposit list?
Wolbachia per cell robust z, rep 1: -2.12; Wolbachia per cell robust z, rep 2: 0.262; Wolbachia per cell robust z, rep 3: 0.418; activity call: inactive

How did the screen score Mdr65 (Multi drug resistance 65)?
Wolbachia per cell robust z, rep 1: 0.91; Wolbachia per cell robust z, rep 2: 0.636; Wolbachia per cell robust z, rep 3: 0.558; activity call: inactive

With CG30001, how do the results read?
Wolbachia per cell robust z, rep 1: -0.351; Wolbachia per cell robust z, rep 2: -0.0322; Wolbachia per cell robust z, rep 3: 0.0573; activity call: inactive

With Plzf (Promyelocytic leukemia zinc finger), what was measured?
Wolbachia per cell robust z, rep 1: 0.911; Wolbachia per cell robust z, rep 2: 0.319; Wolbachia per cell robust z, rep 3: -0.492; activity call: inactive

With CG11449 #1, how do the results read?
Wolbachia per cell robust z, rep 1: 0.671; Wolbachia per cell robust z, rep 2: -1.62; Wolbachia per cell robust z, rep 3: 1.33; activity call: inactive

For CG11449 #2, what was measured?
Wolbachia per cell robust z, rep 1: -2.96; Wolbachia per cell robust z, rep 2: 0.646; Wolbachia per cell robust z, rep 3: 0.000368; activity call: inactive

For Ect3 (Ectoderm-expressed 3) #1, what was measured?
Wolbachia per cell robust z, rep 1: -0.392; Wolbachia per cell robust z, rep 2: 0.693; Wolbachia per cell robust z, rep 3: 0.514; activity call: inactive

Which result is listed for Ect3 (Ectoderm-expressed 3) #2?
Wolbachia per cell robust z, rep 1: 0.07; Wolbachia per cell robust z, rep 2: -0.292; Wolbachia per cell robust z, rep 3: 1.31; activity call: inactive

What is on record for CG30356?
Wolbachia per cell robust z, rep 1: -2.2; Wolbachia per cell robust z, rep 2: -2.66; Wolbachia per cell robust z, rep 3: -0.688; activity call: inactive

With mute + Ufm1, what does the deposit list?
Wolbachia per cell robust z, rep 1: 1.02; Wolbachia per cell robust z, rep 2: -0.237; Wolbachia per cell robust z, rep 3: 0.0972; activity call: inactive

Part of the list above in another layout:
Target gene,dsRNA no.,"Wolbachia per cell robust z, rep 1","Wolbachia per cell robust z, rep 2","Wolbachia per cell robust z, rep 3",activity call
CG12985,1,-2.35,-1.52,-0.22,active
CG12985,2,0.677,1.09,0.489,inactive
